Results of unrelated studies side by side (data: NIAID ChemDB).

Shared fields: tests in culture

Two numbers with a dash give a range or band. Inhibition is in % at the dose shown (toxicity tests: loss of growth or viability). An empty or dashed field is not shown. ECn: concentration that inhibits the pathogen or its effect by n%. Conditions beyond the fields shown may differ between rows. MIC50, MIC90 and the like: level of inhibition, or share of isolates inhibited.

SMILES	method	agent	cells	strain	tested at	measure	result
CCCC(CCC)C(NC(C)=O)C1CC(C(=O)O)CC1N=C(N)N		Influenza B virus	MDCK	LEE/40		EC50	1.7 µM
CCCCN1C(=O)[C@@H](Cc2ccccc2)NC1=S	cytopathic effect / XTT	HIV-2	MT-4		0.1 µg/mL	inhibition	1%
O=C(NC1CC1)c1cc2c(s1)-c1ccccc1N(C(=O)c1ccc(NC(=O)c3ccccc3-c3ccccc3)cc1)CC2	plaque count	Respiratory syncytial virus	HeLa	LONG (A)		EC50	0.2 µM
O=C(NC(=O)c1ccccc1O)c1ccccc1O		Toxoplasma gondii	Human foreskin fibroblasts			MIC50	>0.25 µM
CCC(CC)[C@H](NC(C)=O)[C@@H]1C[C@@H](C(=O)O)C[C@H]1N=C(N)N		Influenza B virus	MDCK	Harbin/07/94		EC50	0.16 µM
O[C@@H]1[C@H](O)[C@H](O)CO[C@H]1n1c(Br)nc2cc(Cl)c(Cl)cc21	plaque count	Guinea pig cytomegalovirus	HFF			EC50	27 µM
Cc1ccccc1Cn1nnc(C#N)c1/N=c1\ssnc1Cl		Saccharomyces cerevisiae		ATCC26785		MIC	25 µg/mL
CN1C(=O)[C@@H](Cc2ccccc2)NC1=S	RT activity	HIV-2	MT-4		10 µg/mL	inhibition	1%
Nc1nccc(NCC2(CO)CC(CCc3ccccc3)C2)n1	plaque count	Influenza B virus	MDCK	B/GIFU/2/73		EC50	9–14 µM
O=C(O)P(=O)(O)O		Cytomegalovirus	MRC-5	192		EC50	163.8 µM
Cc1occc1C(=O)NC(=O)c1ccccc1O		Toxoplasma gondii	Human foreskin fibroblasts			MIC50	>1 µM
CN(C)c1ncnc2c1ncn2Cc1ccccc1NC(=O)C(N)Cc1ccccc1	plaque count	Coronavirus	M-HELA			EC50	>50 µM
O=S(=O)([O-])c1cc(O)c2ccccc2c1	cytopathic effect	Herpes simplex virus	Human conjunctiva cells		10 µg/mL	inhibition	0%
Nc1nc2c(ncn2COC(CO)CO)c(=O)[nH]1	hybridisation	Human cytomegalovirus	MRC-5	8702REC2 (ALA594VAL)		EC50	1.8 µM
CCOc1ccccc1CCNC(=S)Nc1nccs1	cytopathic effect / XTT	HIV-2	MT-4		100 µg/mL	inhibition	100%
Nc1ccc(S(=O)(=O)[O-])c2c(S(=O)(=O)[O-])ccc(O)c12	cytopathic effect	Adenovirus	Human amnion AV3 cells	TYPE 3	5 µg/mL	inhibition	20%
Nc1ncnc2c1ncn2[C@@H]1CC[C@@H](O)[C@H]1O	virus yield	Measles virus	CV-1			EC50	0.4 µg/mL
O=C(NCCc1ccccc1)Nc1nc2ccccc2s1	cytopathic effect / XTT	HIV-2	MT-4		10 µg/mL	inhibition	100%
OC[C@H]1O[C@@H](n2c(Br)nc3cc(Cl)c(Cl)cc32)[C@H](O)[C@@H]1O	plaque count	Rhesus cytomegalovirus	HFF			EC50	0.4 µM
CC(C)(C)n1ncc(C#N)c1/N=c1\ssnc1Cl		Saccharomyces cerevisiae		ATCC26785		MIC	25 µg/mL
CC(=O)Nc1ccc(C(=O)O)cc1		Pneumocystis carinii			1 µM	inhibition	20%
CC(N)C12CC3CC(CC(C3)C1)C2	ELISA	Influenza A virus	MDCK	H1N1 A/Victoria/36/88		EC50	0.02 µg/mL
Oc1ccccc1N=Cc1ccc(O)c(O)c1O		Cryptococcus gattii		135L/03		MIC99	11.3 µg/mL
Cc1cc(-c2ccc(N=Nc3c(S(=O)(=O)O)cc4cc(S(=O)(=O)O)cc(N)c4c3O)c(C)c2)ccc1N=Nc1c(S(=O)(=O)O)cc2cc(S(=O)(=O)O)cc(N)c2c1O	cytopathic effect	Rhinovirus	Human amnion AV3 cells		10 µg/mL	inhibition	0%
COC(=O)c1ccc(C(=O)NC(=O)c2ccccc2O)cc1		Toxoplasma gondii	Human foreskin fibroblasts			MIC50	>1 µM
CC(C)Nc1nc2cc(Cl)c(Cl)cc2n1[C@H]1O[C@@H](CO)[C@H](O)[C@@H]1O	hybridisation	Human cytomegalovirus	MRC-5	XBAF.4 (alaalacysarg593DEL)		EC50	0.03 µM
O=[N+]([O-])c1ccc(C=Nc2ccccc2O)cc1		Cryptococcus gattii		ATCC 24065		MIC99	8 µg/mL
O=C(Nc1ccc(C(F)(F)F)cc1)Nc1ccc(C(F)(F)F)cc1		Escherichia coli		ES142		MIC	>300 µM
CN(C)c1ncnc2c1ncn2Cc1cccc(NC(=O)C(Cc2ccccc2)NC(=O)OCc2ccccc2)c1	plaque count	Coronavirus	M-HELA			EC50	>50 µM
O=C(NCc1ccc(Cl)cc1)c1c[nH]c2ccc(CCCO)cc2c1=O	plaque count	Rat cytomegalovirus				EC50	0.3 µM
Nc1nc(Cl)c(N)c(NCC2(CO)CC(Cc3ccccc3)C2)n1	plaque count	Influenza A virus	MDCK	H1N1 A/PR/8/34		EC50	0.12–0.17 µM
CN(Cc1ccc(F)cc1)C(=O)c1c[n+]2c(cn1)CN=C2c1ccc(C(F)(F)F)cc1	SYBR Green	Plasmodium yoelii				EC50	>10 µM
Nc1ccc(S(=O)(=O)N(Cc2ccccc2)CC(F)(F)C(=O)[C@@H](Cc2ccccc2)NC(=O)O[C@H]2CCOC2)cc1	p24	HIV-1	CEM	IIIB		EC90	1 µM
N#Cc1cnn(-c2ccccc2)c1/N=c1\ssnc1Cl		Saccharomyces cerevisiae		ATCC26785		MIC	25 µg/mL
COc1ccc(S(=O)(=O)N(CC(C)C)C[C@@H](O)CCN(CC2CCCC2)S(=O)(=O)Cc2cc[nH]c2)cc1	p24	HIV-1	CEM	IIIB		EC90	1 µM
Nc1nc(Cl)cc(NCC2(CO)CCC(O)C2)n1	plaque count	Influenza B virus	MDCK	B/GIFU/2/73		EC50	>110 µM
C/C=C/C/C=C/CCC(=O)[C@H]1O[C@H]1C(N)=O		Escherichia coli		UB1005/PEMR2.1		MIC	10 µg/mL
CCC(CC)[C@H](NC(C)=O)[C@@H]1[C@H](O)[C@@H](C(=O)O)C[C@H]1N=C(N)N		Influenza A virus	MDCK	Influenza A/Washington/05/96 (H3N2)		EC50	0.02 µM
Nc1ncnc2c1ncn2C=C1CC1CO	plaque count	Human cytomegalovirus		VR3480 (ganciclovir-resistant)		EC90	8.4 µM
Nc1c(S(=O)(=O)[O-])cc2cc(S(=O)(=O)[O-])ccc2c1O	cytopathic effect	Herpes simplex virus	Human conjunctiva cells		5 µg/mL	inhibition	0%
Nc1nc2c(ncn2COC(CO)CO)c(=O)[nH]1	plaque count	Guinea pig cytomegalovirus	HFF			EC50	191 µM
Nc1nc2c(ccn2[C@@H]2C[C@H](CO)[C@@H](O)[C@H]2O)c(=O)[nH]1		Sindbis virus				MIC	>100 µg/mL
CC(C)CC(N)C(=O)Nc1ccc(Cn2cnc3c(N(C)C)ncnc32)cc1	plaque count	Coronavirus	M-HELA			EC50	>50 µM
Nc1ncnc2c1ncn2[C@@H]1C=C[C@@H](O)[C@H]1O	cytopathic effect	Measles virus	CV-1	TN1994		EC50	0.1 µg/mL
O=C(Nc1cc(C(F)(F)F)cc(C(F)(F)F)c1)NN(C(=O)Nc1cc(C(F)(F)F)cc(C(F)(F)F)c1)c1nc2ccccc2s1		Escherichia coli		ES142		MIC	>300 µM
C/C=C\[C@@H]1C[C@H](C(=O)O)N[C@H]1[C@@H](NC(C)=O)[C@](C)(CCC)OC	plaque count	Influenza A virus	MDCK	H1N1 isolate C31C		EC50	≤0.02 µg/mL
COc1cc(-c2ccc(N=Nc3ccc4c(S(=O)(=O)O)cc(S(=O)(=O)O)c(N)c4c3O)c(OC)c2)ccc1N=Nc1ccc2c(S(=O)(=O)O)cc(S(=O)(=O)O)c(N)c2c1O	cytopathic effect	Herpes simplex virus	Human amnion AV3 cells		50 µg/mL	inhibition	100%
COc1c(Cl)nc(N)nc1NCC1(CO)CC(CCc2ccccc2)C1	plaque count	Influenza B virus	MDCK	B/GIFU/2/73		EC50	0.16–0.8 µM
CCOC(=O)c1c(C)nc(OCCCNc2ccnc3cc(Cl)ccc23)nc1-c1ccccc1		Cryptococcus gattii		L 27/01		MIC99	32 µg/mL
O=c1[nH]c(=O)n([C@H]2C[C@H](O)[C@@H](CO)O2)cc1Br	hybridisation	Murine polyoma virus	ME		0.254 µg/mL	inhibition	50.4%
O=C(O[C@H]1CCOC1)N(CCc1ccccc1)C[C@H](O)CN(CC1CCCC1)S(=O)(=O)c1ccc(O)cc1	p24	HIV-1	CEM	IIIB		EC90	0.1 µM
O=S(=O)(O)c1cc(O)c2c(O)c(N=Nc3ccccc3)c(S(=O)(=O)O)cc2c1	cytopathic effect	Rhinovirus	Human embryonic lung cells		10 µg/mL	inhibition	90%
COc1ccc(S(=O)(=O)N(CCC(O)CN(CC(C)C)S(=O)(=O)c2ccccc2)CC(C)C)cc1	p24	HIV-1	CEM	IIIB		EC90	1 µM
O=S(=O)(O)c1cc(O)c2c(O)cc(S(=O)(=O)O)cc2c1	cytopathic effect	Herpes simplex virus	Human conjunctiva cells		10 µg/mL	inhibition	10%
O=C(NNC(=O)Nc1cc(C(F)(F)F)cc(C(F)(F)F)c1)Nc1cccc(C(F)(F)F)c1		Escherichia coli		ES142		MIC	>300 µM
N#Cc1cnn(CCc2ccccc2)c1/N=c1\ssnc1Cl		Saccharomyces cerevisiae		ATCC26785		MIC	25 µg/mL
Cc1nc(NC(=O)NCCc2ccccc2)sc1C	RT activity	HIV-2	MT-4		10 µg/mL	inhibition	61%
CS[C@@H]1C=C[C@H](n2cnc3c(N)ncnc32)C1	cytopathic effect	Measles virus	CV-1			EC50	>100 µg/mL
CCOC(=O)c1c(C)nc(NCCCCNc2ccnc3cc(Cl)ccc23)nc1-c1ccccc1[N+](=O)[O-]		Cryptococcus gattii		29/10893		MIC99	4 µg/mL
CCCCCCCCOC(=O)[C@]1(O)C[C@@H](O)[C@@H](O)[C@H](OC(=O)/C=C/c2ccc(O)c(O)c2)C1	absorbance	Aspergillus westerdijkiae		CBS 112803		MIC50	500 µg/mL
CCc1ccc(C(=O)NS(=O)(=O)c2ccccc2O)cc1		Toxoplasma gondii	Human foreskin fibroblasts			MIC90	>0.25 µM
COc1ccc(S(=O)(=O)NC(CC(C)C)C(F)(F)C(=O)[C@@H](Cc2ccccc2)NC(=O)O[C@H]2CCOC2)cc1	p24	HIV-1	CEM	IIIB		EC90	1 µM
Cn1cc(C(=O)NCc2ccc(Cl)cc2)c(=O)c2cc(CN3CCOCC3)ccc21	plaque count	Varicella zoster virus	HFF	MA varicella isolate	2.4 µM	inhibition	90%
Nc1nc2c(ncn2CC(CO)CCO)c(=O)[nH]1	plaque count	Simian varicella-zoster virus	GMK			EC50	91 µM
C=CCc1ccc(OC)c(OC)c1	turbidity	Candida parapsilosis		2615		MIC90	340 µg/mL
Nc1nc2c(ncn2[C@H]2CC[C@@H](CO)O2)c(=O)[nH]1		Duck hepatitis B virus	Primary duck hepatocytes			EC50	0.5 µM
O=C(NCCc1ccccc1)Nc1nc2ccc(F)cc2s1	cytopathic effect / XTT	HIV-2	MT-4		1 µg/mL	inhibition	40%
CN(C)c1ncnc2c1ncn2Cc1cccc(NC(=O)C(N)Cc2ccccc2)c1	plaque count	Coronavirus	M-HELA			EC50	50 µM
Nc1ncnc2c1ncn2[C@@H]1C[C@H](N)[C@@H](O)[C@H]1O	cytopathic effect	Measles virus	CV-1	SA		EC50	>100 µg/mL
CC(C)Oc1ccc2cc(C(=O)NC(=O)c3ccccc3O)ccc2c1		Toxoplasma gondii	Human foreskin fibroblasts			MIC50	0.062–0.125 µM
O=C(Nc1cc(C(F)(F)F)cc(C(F)(F)F)c1)NN(CC(O)CN1CCOCC1)C(=O)Nc1cc(C(F)(F)F)cc(C(F)(F)F)c1		Klebsiella pneumoniae		KL21		MIC	>300 µM
CN1CCc2c(sc(/N=c3\ssnc3Cl)c2C#N)C1		Saccharomyces cerevisiae		ATCC26785		MIC	100 µg/mL
Nc1ncnc2c1ncn2Cc1ccc(NC(=O)C(N)Cc2ccccc2)cc1	plaque count	Coronavirus	M-HELA			EC50	>50 µM
O=C(Nc1cc(C(F)(F)F)cc(C(F)(F)F)c1)NN1CCOCC1		Klebsiella pneumoniae		KL21		MIC	>300 µM
CCc1ccc(C(=O)NC(=O)c2ccccc2)cc1		Toxoplasma gondii	Human foreskin fibroblasts			MIC50	>0.25 µM
O=C(Nc1cccc(C2=NCCN2)c1)Nc1cccc(C(F)(F)F)c1		Klebsiella pneumoniae		KL21		MIC	106 µM
Nc1nc2c(ncn2COC(CO)CO)c(=O)[nH]1	plaque count	Guinea pig cytomegalovirus	GPE			EC50	81.68 µM
CC1(C)N=C(N)N=C(N)N1OCCCOc1cc(Cl)c(Cl)cc1Cl		Mycobacterium avium complex		F8074		MIC	2 µg/mL
O=C(O)c1cc(-n2cccc2)ccc1Cl	luciferase / cell fusion	HIV-1	PBMC/5.25M7	SF162 R5 CLADE B		EC90	150 µM
CCC(O)CN(NC(=O)Nc1cc(C(F)(F)F)cc(C(F)(F)F)c1)C(=O)Nc1cc(C(F)(F)F)cc(C(F)(F)F)c1		Klebsiella pneumoniae		KL21		MIC	>300 µM

Repeating the final 5 entries:

SMILES,method,agent,cells,strain,tested at,measure,result
O=C(Nc1cccc(C2=NCCN2)c1)Nc1cccc(C(F)(F)F)c1,,Klebsiella pneumoniae,,KL21,,MIC,106 µM
Nc1nc2c(ncn2COC(CO)CO)c(=O)[nH]1,plaque count,Guinea pig cytomegalovirus,GPE,,,EC50,81.68 µM
CC1(C)N=C(N)N=C(N)N1OCCCOc1cc(Cl)c(Cl)cc1Cl,,Mycobacterium avium complex,,F8074,,MIC,2 µg/mL
O=C(O)c1cc(-n2cccc2)ccc1Cl,luciferase / cell fusion,HIV-1,PBMC/5.25M7,SF162 R5 CLADE B,,EC90,150 µM
CCC(O)CN(NC(=O)Nc1cc(C(F)(F)F)cc(C(F)(F)F)c1)C(=O)Nc1cc(C(F)(F)F)cc(C(F)(F)F)c1,,Klebsiella pneumoniae,,KL21,,MIC,>300 µM